Compound potency records, mixed from different reports. Data source: NIAID ChemDB in PubChem.

Common to all: whole-cell or culture tests; organism: Mycobacterium avium; measure: MIC

Lines come from different laboratories, so protocols vary.

SMILES | setting | strain or isolate | value
Cc1ccc(CS(=O)(=O)c2ncn[nH]2)cc1 |  | MY330/88 | >500 µM
O=C(NCc1ccccn1)c1cc(F)ccc1O | 21 d | ATCC 25291 | 1000 µM
Fc1ccc2oc(=S)n(-c3ccc(Cl)c(Cl)c3)c(=S)c2c1 | 14 d | MY330/88 | 16 µM
CN(C)c1ccc(-n2c(=O)oc3cc(Cl)ccc3c2=O)cc1 |  | CNCTC MY330/88 | 62 µM
CCCCc1ccc(NC(=S)c2cccc(OC)c2)cc1 |  | MY330/88 | 32 µM
C(=C\c1ccccc1)/CO/N=C(\Cn1ccnc1)c1ccccc1 |  | CIP103317 | 8 µg/mL
Cc1ccc2oc(=S)n(-c3ccc(Br)cc3)c(=S)c2c1 | 21 d | MY330/88 | 4 µM
O=C(Nc1ccc(N2CCSCC2)cc1)c1ccc(Cl)cc1 |  | 103317 | >16 µg/mL
O=c1oc2ccc(F)cc2c(=O)n1-c1ccccc1 |  | CNCTC MY330/88 | 31 µM
COc1ccc2oc(=S)n(-c3ccc(Br)cc3)c(=S)c2c1 | 21 d | MY330/88 | 62.5 µM
CCCC(C)S/C(N)=N/N=C/c1ccc2ccccc2n1 |  | CNCTC MY66/72 | 16 µM
Cc1ccc(C(=O)Nn2cncn2)c(O)c1 |  | MY330/88 | 1000 µM
S=C(Nc1ccc(C2CCCCC2)cc1)c1ccccc1 |  | MY330/88 | 32 µM
CCS/C(N)=N/N=C/c1ccccc1O |  | CNCTC MY80/72 | >1000 µM
CCCCCCCCCCOc1ccc(NC(=O)OCCN2CCOCC2)cc1 |  | MY330/88 | 8 µM
O=C(NCc1cccc(Cl)c1)c1ncccc1S |  | CNCTC MY330/88 | 16 µM
Clc1ccccc1CSc1ncn[nH]1 |  | MY330/88 | 500 µM
Clc1ccc2c(c1)nc1cc(Nc3ccccc3)c(=NC3CCCCC3)cc-1n2-c1ccccc1 |  | 11279 | 3.3 µg/mL
O=C(NCc1cccc(Cl)c1)c1ncccc1O |  | CNCTC MY330/88 | 62.5 µM
Cn1cnnc1SCc1ccc([N+](=O)[O-])cc1[N+](=O)[O-] |  | MY330/88 | >1000 µM
c1ccc(-c2ccc(CNc3ccccc3N3CCSCC3)cc2)cc1 |  | 103317 | >16 µg/mL
CCCCCCCCOc1cccc(NC(=O)OCCN(C)C)c1 |  | MY330/88 | 8 µM
c1ccc(C(Cn2ccnc2)OCc2cccc3ccccc23)cc1 |  | 103317 | 3.05 µM
N/C(=N\N=C\c1cc2ccccc2s1)c1ccccn1 |  |  | >16 µg/mL
COc1ccc(-n2c(=O)oc3ccc(Cl)cc3c2=O)cc1 |  | CNCTC MY330/88 | 31 µM
Cn1cnnc1SCc1cc([N+](=O)[O-])cc([N+](=O)[O-])c1 |  | MY330/88 | >1000 µM
O=C(Nc1cccc(Cl)c1)c1ccccc1O |  | CNCTC MY330/88 | 31 µM
FC(F)(F)c1cccc(CSc2ncn[nH]2)c1 |  | MY330/88 | 500 µM
Oc1ccccc1C(=S)NCc1ccc(Cl)cc1 |  | MY330/88 | 0.5 µg/mL
CCOC(=O)c1ccc(-n2c(=O)oc3cc(Cl)ccc3c2=O)cc1 |  | CNCTC MY330/88 | 32 µM
C[C@H]1COc2c(N3CCN(C)CC3)c(F)cc3c(=O)c(C(=O)O)cn1c23 |  | 14-2 | 0.5 µg/mL
CCS/C(N)=N/N=C/c1nc2ccccc2n1C |  | CNCTC MY80/72 | 500 µM
CC(C)N=C(N)/N=C(\N)NOCCCOc1cc(Cl)c(Cl)cc1Cl |  | 3404-4 | 15.6 µg/mL
Cc1ccc(NC(=O)c2ccccc2O)cc1 |  | CNCTC MY330/88 | 62.5 µM
S=c1oc2c(Cl)cc(Cl)cc2c(=S)n1-c1ccc(Br)cc1 |  | 330/88 | 62 µM
COc1ccc(O)c(C(=S)NCc2ccccc2)c1 |  | MY330/88 | 4 µg/mL
N/C(=N\N=C\c1cc2ccccc2o1)c1ccccn1 |  |  | >16 µg/mL
CC(C)[C@H](NC(=O)OCc1ccccc1)c1cnc(-c2ccccc2)[nH]1 | 14 d | MY330/88 | >250 µM
CN1CCN(c2ccccc2NCc2ccc(Cl)cc2)CC1 |  | 103317 | 97.8 µM
O=C(NCc1ccc(Cl)cc1)c1ncccc1O |  | CNCTC MY330/88 | 125 µM
Clc1ccc(/C(Cn2ccnc2)=N/OCc2ccccc2)c(Cl)c1 |  | CIP103317 | 8 µg/mL
Clc1ccc(C(Cn2ccnc2)OCc2cccc3ccccc23)cc1 |  | 103317 | 11 µM
S=c1[nH]c2ccccc2c(=S)n1-c1ccc(Cl)c(Cl)c1 |  | 330/88 | 32 µM
Cc1cc(C)nc(NC(=O)c2ccccc2O)n1 |  | MY330/88 | 1000 µM
O=C(Nc1cccc(N2CCSCC2)c1)c1ccc(-c2ccccc2)cc1 |  | 103317 | 82.5 µM
Cc1cccc(C(=S)Nc2ccc(C(C)C)cc2)c1 |  | MY330/88 | 62.5 µM
Clc1ccc(CNc2ccccc2-n2ccnc2)cc1 |  | 103317 | >16 µg/mL
O=c1oc2ccc(Br)cc2c(=S)n1-c1ccccc1 | 21 d | MY330/88 | 16 µM
S=c1[nH]c2ccccc2c(=S)n1-c1ccc(Br)cc1 |  | 330/88 | >64 µM
Cc1ccc(NC(=O)c2ncccc2O)cc1 |  | CNCTC MY330/88 | 62.5 µM
c1ccc(/C(Cn2ccnc2)=N/OCc2ccc(-c3ccccc3)cc2)cc1 |  | 103317 | 21.7 µM
COc1ccc2oc(=O)n(-c3cccc(Cl)c3)c(=O)c2c1 |  | CNCTC MY330/88 | 125 µM
O/N=C(/Cn1ccnc1)c1ccc(F)cc1 |  | 103317 | 72.9 µM
Oc1cc(Cl)cc(Cl)c1C(=S)NCc1ccc(Cl)c(Cl)c1 |  | MY330/88 | 62.5 µg/mL
Clc1ccc(C(Cn2ccnc2)OCc2ccc(-c3ccccc3)cc2)c(Cl)c1 |  | 103317 | 9.47 µM
S=c1oc2c(Cl)cc(Cl)cc2c(=S)n1-c1ccccc1 |  | 330/88 | 62 µM
CCCOc1ccccc1NC(=O)OCCN1CCCCC1 |  | MY330/88 | 500 µM
N/C(=N\N=C\c1nc2cc(Cl)ccc2o1)c1cnccn1 |  |  | >16 µg/mL
c1ccc(/C(Cn2ccnc2)=N/OCc2cccc3ccccc23)cc1 |  | CIP103317 | >16 µg/mL
O=C(NCc1ccccc1)c1ccc(Cl)cc1O | 21 d | ATCC 25291 | 62 µM
Fc1cccc(CSc2ncn[nH]2)c1 |  | MY330/88 | 500 µM
C[C@H](NC(=O)OCc1ccccc1)c1cnc(-c2ccccc2)[nH]1 | 14 d | MY330/88 | 125 µM
O=C(NCc1ccccc1)c1cc(Cl)cc(Cl)c1O | 14 d | ATCC 25291 | 125 µM
Cc1ccnc(NC(=O)c2ccc(Cl)cc2O)n1 |  | MY330/88 | 500 µM
CCCCc1ccc(NC(=S)c2cccc([N+](=O)[O-])c2)cc1 |  | MY330/88 | 32 µM
Fc1ccc(/C(Cn2ccnc2)=N/OCc2ccccc2)cc1 |  | CIP103317 | 4 µg/mL
Cc1ccc2oc(=S)n(-c3ccccc3)c(=S)c2c1 | 21 d | MY330/88 | 4 µM
O=C(NCc1cccnc1)c1ccccc1O | 14 d | ATCC 25291 | 500 µM
O=C(Nc1cncs1)c1cc(Br)ccc1O |  | MY330/88 | 125 µM
O=C(NCc1ccccc1)c1ncccc1O |  | CNCTC MY330/88 | 250 µM
COc1ccc(C(=O)Nc2cc(C)on2)c(O)c1 |  | MY330/88 | 250 µM
CCCOc1ccccc1NC(=O)OCCN1CCOCC1 |  | MY330/88 | 1000 µM
O=C(OCc1ccccc1)N1CCC[C@H]1c1cnc(-c2ccc([N+](=O)[O-])cc2)[nH]1 | 21 d | MY330/88 | >250 µM
Clc1ccc(/C(Cn2ccnc2)=N/OCc2ccccc2)cc1 |  | CIP103317 | 8 µg/mL
CCOc1ccccc1NC(=O)OCC[NH+]1CCCC1 |  | MY330/88 | 1000 µM
CS/C(N)=N/N=C/c1ccc2ccccc2n1 |  | CNCTC D5/93 | >1000 µM
CC(C)(C)c1ccc(COC(Cn2ccnc2)c2ccccc2)cc1 |  | 103317 | 2.99 µM
CCC(C)S/C(N)=N/N=C/c1ccncc1 |  | CNCTC MY80/72 | 500 µM
c1ccc(-c2ccc(CNc3ccc(N4CCOCC4)cc3)cc2)cc1 |  | 103317 | 8 µg/mL
Cc1ccc2oc(/C=N/N=C(\N)c3cnccn3)nc2c1 |  |  | >16 µg/mL
O=C(OCc1ccccc1)N1CCC[C@H]1c1cnc(-c2ccccc2)[nH]1 | 14 d | MY330/88 | >250 µM
O=C(Nc1cnccn1)c1cc(Br)ccc1O |  | MY330/88 | 250 µM
CCS/C(N)=N/N=C/c1ccc2ccccc2n1 |  | CNCTC D5/93 | >1000 µM
Oc1ccccc1C(=S)NCc1cccc(C(F)(F)F)c1 |  | MY330/88 | 0.5 µg/mL
Clc1ccc(/C(Cn2ccnc2)=N\OCc2ccc(-c3ccccc3)cc2)cc1 |  | CIP103317 | 16 µg/mL
COc1ccc2oc(=O)n(-c3ccc(C(F)(F)F)cc3)c(=O)c2c1 |  | CNCTC MY330/88 | 32 µM
S=c1[nH]c2ccccc2c(=S)n1-c1ccccc1 |  | 330/88 | >64 µM
Cc1ccc(-n2c(=O)oc3ccc(Cl)cc3c2=O)cc1 |  | CNCTC MY330/88 | 16 µM
O=C(NCc1ccccn1)c1cc(Br)ccc1O | 21 d | ATCC 25291 | 250 µM

For reference, 11 entries again:

SMILES	setting	strain or isolate	value
Oc1ccccc1C(=S)NCc1cccc(C(F)(F)F)c1		MY330/88	0.5 µg/mL
Clc1ccc(CNc2ccccc2-n2ccnc2)cc1		103317	>16 µg/mL
O/N=C(/Cn1ccnc1)c1ccc(F)cc1		103317	72.9 µM
Clc1ccccc1CSc1ncn[nH]1		MY330/88	500 µM
N/C(=N\N=C\c1cc2ccccc2s1)c1ccccn1			>16 µg/mL
O=C(NCc1ccccn1)c1cc(F)ccc1O	21 d	ATCC 25291	1000 µM
FC(F)(F)c1cccc(CSc2ncn[nH]2)c1		MY330/88	500 µM
Clc1ccc(C(Cn2ccnc2)OCc2ccc(-c3ccccc3)cc2)c(Cl)c1		103317	9.47 µM
Fc1cccc(CSc2ncn[nH]2)c1		MY330/88	500 µM
Cc1ccc(NC(=O)c2ccccc2O)cc1		CNCTC MY330/88	62.5 µM
O=C(NCc1cccnc1)c1ccccc1O	14 d	ATCC 25291	500 µM

An empty or dashed field is not shown.